A mixed list of measured activities; the numbers were collected in NIAID ChemDB.

Shared fields: enzyme or target tests; organism: Hepatitis C virus; protein: Nonstructural protein 5B

ICn: concentration for n% inhibition.

smiles,endpoint,dose,value
CNC(=O)c1c(-c2ccc(F)cc2)oc2cc(-c3cn[nH]c3C)c(OC(C)C)cc12,IC50,,≤0.5 µM
Cc1cnc(CNC(=O)c2ccc(S(=O)(=O)Nc3ccc(N4CCOCC4)cc3)cc2)cn1,inhibition,0.1 µg/mL,62%
CNC(=O)c1c(-c2ccc(F)cc2)oc2cc(N(CC(O)c3ccc(F)cc3)S(C)(=O)=O)c(O)cc12,IC50,,≤0.5 µM
COc1cc(OC)c(CCC2(C3CCCC3)CC(O)=C(Sc3nc4[nH]ccc4c(=O)[nH]3)C(=O)O2)cc1Cl,IC50,,<1 µM
COc1nc(Nc2ccc3cn[nH]c3c2)nc(NN2CCN(C)CC2)n1,inhibition,1 µg/mL,43%
CCn1nnnc1SC1=C(O)CC(CCc2cc(Cl)c(OC)cc2OC)(C2CCCC2)OC1=O,IC50,,<1 µM
CCN(CC)C(=O)c1c(OC)cccc1-c1ccc(C=C2SC(=S)N(c3ccc(C(=O)O)cc3)C2=O)o1,IC50,,≤1 µM
CNC(=O)c1c(-c2ccc(F)cc2)oc2cc(N)c(OCc3ccccc3)cc12,IC50,,≤0.5 µM
O=C1NC(=S)SC1=Cc1ccc(-c2cccs2)s1,IC50,,≤1 µM
CSc1nc(Nc2ccc(N3CCOCC3)cc2)cc(N2CCN(CC(=O)NCCN3CCCCC3)CC2)n1,inhibition,1 µg/mL,70%
COc1nc(NCCCn2ccnc2)nc(Nc2ccc3cn[nH]c3c2)n1,inhibition,1 µg/mL,41%
O=C(O)c1ccc(S(=O)(=O)Nc2ccc(N3CCOCC3)cc2)cc1,inhibition,1 µg/mL,70%
COc1nc(NCCN(C)C)nc(Nc2ccc3[nH]ncc3c2)n1,inhibition,1 µg/mL,37%
CC(=O)c1ccccc1-c1ccc(C=C2SC(=S)N(c3ccc(C(=O)O)cc3)C2=O)o1,IC50,,≤1 µM
CSc1nc(Nc2ccc(N3CCOCC3)cc2)cc(N2CCN(CC(=O)NCCN(C(C)C)C(C)C)CC2)n1,inhibition,1 µg/mL,68%
COc1nc(NCCN2CCOCC2)nc(Nc2ccc3cn[nH]c3c2)n1,inhibition,0.1 µg/mL,16%
Cc1cc(SC2=C(O)CC(CCc3ccc(O)cc3)(C3CCCC3)OC2=O)c(C(C)(C)C)cc1NS(=O)(=O)c1ccccc1,IC50,,1–10 µM
O=C(O)c1ccc(N2C(=O)C(=Cc3ccc(-c4cccc(Cl)c4Cl)o3)SC2=S)cc1,IC50,,≤1 µM
CNC(=O)c1c(-c2ccc(F)cc2)oc2cc(NCc3ccoc3)c(OC(C)C)cc12,IC50,,≤0.5 µM
COCCNc1nc(Nc2ccc3[nH]ncc3c2)nc(OC)n1,inhibition,0.1 µg/mL,46%
CC(C(=O)O)N1C(=O)C(=Cc2ccc(-c3cc(C(F)(F)F)ccc3Cl)o2)SC1=S,IC50,,≤1 µM
CSc1nc(Nc2ccc(N3CCOCC3)cc2)cc(N2CCN(CC(=O)N3CCN(c4cnccn4)CC3)CC2)n1,inhibition,1 µg/mL,67%
COc1nc(Nc2ccc3[nH]ncc3c2)nc(N2CCOCC2)n1,inhibition,1 µg/mL,52%
CCN(CC)CCN(CC)C(=O)CN1CCN(c2cc(Nc3ccc(N4CCOCC4)cc3)nc(SC)n2)CC1,inhibition,1 µg/mL,75%
O=C(O)CCN1C(=O)C(=Cc2ccc(-c3ccccc3C(F)(F)F)o2)SC1=S,IC50,,≤1 µM
CON1C(Nc2ccc3cn[nH]c3c2)=NC(NC(C)C)=NC1NC(C)C,inhibition,0.1 µg/mL,0%
CNC(=O)c1c(-c2ccccc2)oc2cc(C)c(OC)cc12,IC50,,≤0.5 µM
COc1ccc(CCC2(C3CCCC3)CC(=O)CC(=O)O2)cc1F,IC50,,<1 µM
CSc1nc(Nc2ccc(N3CCOCC3)cc2)cc(N2CCN(CC(=O)N3CCSCC3)CC2)n1,inhibition,1 µg/mL,67%
O=C1C=C(O)CC(CCC2CCCC2)(C2CCCC2)O1,IC50,,10–50 µM
CSc1nc(Nc2ccc(N3CCOCC3)cc2)cc(N2CCN(CC(=O)N(CCN(C)C)Cc3ccccc3)CC2)n1,inhibition,1 µg/mL,77%
O=C1CC(=O)OC(CCc2ccccc2)(C2CCCC2)C1,IC50,,10–50 µM
CSc1nc(Nc2ccc(N3CCOCC3)cc2)cc(N2CCN(CC(=O)NCCO)CC2)n1,inhibition,1 µg/mL,60%
COc1ccc(CCC2(C3CCCC3)CC(=O)C(C(=O)c3ccccc3)C(=O)O2)c(OC)c1,IC50,,10–50 µM
O=C(NCCc1ccncc1)c1ccc(S(=O)(=O)Nc2ccc(N3CCOCC3)cc2)cc1,inhibition,1 µg/mL,58%

Blank or dashed fields: not listed here. a–b is a range or a potency band. Conditions beyond the fields shown may differ between rows. Percent inhibition refers to the dose given; in toxicity tests it is the harm to the cells.